Anti-infective test results gathered from many reports (values: NIAID ChemDB through PubChem).

Shared fields: whole-cell or culture tests

ECn is the concentration giving n% inhibition of infection, replication or growth. Rows are shuffled and stem from different studies. Two numbers with a dash give a range or band. Percent inhibition refers to the dose given; in toxicity tests it is the harm to the cells. An empty or dashed field is not shown.

smiles | agent | strain | cell line | read-out | dose | value
CC(=O)c1ccc2c(c1)Cc1ccccc1O2 | Poliovirus | TYPE 3 | BSC-1 | inhibition | 2 µg/mL | 100%
Nc1nc(=O)n([C@@H]2O[C@H](CO)[C@@H](O)[C@@H]2O)cc1Cl | Cowpox virus | Brighton | C1271 | EC50 | - | 4.9 µM
CC(=O)O[C@H]1CC2=CCC3C(CCC4(C)C(C(CCC=C(C)C)COS(=O)(=O)O)CCC34)C2(C)C[C@@H]1OS(=O)(=O)O | Junin virus | IV4454 | VERO | inhibition | 40 µg/mL | 3.5%
O=c1cnn([C@@H]2O[C@H](CO)[C@@H](O)[C@H]2O)c(=O)[nH]1 | Japanese encephalitis virus | Nakayama | VERO | EC50 | - | 0.48 µg/mL
CCOc1ccc(-c2cc(N3CCCCC3)no2)c(O)c1 | African swine fever virus | - | VERO | EC50 | - | >347 µM
O=c1cc(/C=C/c2ccc(O)cc2)c2ccc3occ(-c4ccc(-c5ccccc5)cc4)c3c2o1 | Japanese encephalitis virus | - | - | EC50 | - | 250 µg/mL
Clc1ccc2c(c1)C=C(c1ccccc1)CO2 | Poliovirus | IB (TYPE 2) | HEP-2 | inhibition | 10 µM | 85%
O=P1(O)OCC2O[C@@H](n3cnc4c(=S)nc[nH]c43)[C@H](O)C2O1 | Vaccinia virus | - | - | MIC | - | 3.2–32 µg/mL
CC(=O)c1ccc(Oc2ccccc2)cc1 | Poliovirus | TYPE 3 | BSC-1 | inhibition | 0.4 µg/mL | 33%
CCOP(=O)(NC(C)C(=O)OC)OC[C@H]1O[C@@H](n2ncc(=O)[nH]c2=O)C(O)C1O | Japanese encephalitis virus | Nakayama | VERO | EC50 | - | 22.4 µg/mL
CC(O)c1ccc2c(c1)S(=O)(=O)c1ccccc1O2 | Poliovirus | TYPE 3 | BSC-1 | inhibition | 2 µg/mL | 12%
Nc1ncnc2c1ncn2[C@@H]1O[C@H](CO)[C@](O)(C(F)(F)F)[C@H]1O | Yellow fever virus | - | - | EC50 | - | ≥100 µM
COc1ccc(-c2ccc(C(Nc3ccccc3)N3c4ccccc4Sc4cc(O)c(CCC5(O)C=C(C)c6ccc(O)cc6N5)cc43)cc2)cc1 | Japanese encephalitis virus | P20778 | - | EC50 | - | 31.25 µg/mL
CCn1cnc(=N)c2[nH]cnc21 | Vaccinia virus | - | BSC-1 | inhibition | 12 µg/mL | 0%
CC(=O)N[C@H]1[C@H]([C@H](O)[C@H](O)CO)OC(C(=O)O)=C[C@@H]1N=C(N)N | Influenza A virus | H7N3 A/FPV/ENG/1/63 | MDCK | EC90 | - | ≥1 µM
Cc1ccc(C(=O)CCCCCCOc2ccc(C3=NCCO3)cc2)s1 | Poliovirus | TYPE 3 | VERO | EC50 | - | 1.37 µM
Brc1ccc(C2=Cc3cc(Br)ccc3OC2)cc1 | Poliovirus | SABIN (TYPE 2) | HEP-2 | inhibition | 10 µM | 50%
CC(C)=CCCC(CO)C1CCC2C3CC=C4C[C@H](O)[C@@H](O)CC4(C)C3CCC12C | Junin virus | IV4454 | VERO | inhibition | 80 µg/mL | 0%
CC(=O)OC[C@H]1O[C@@H](n2ncc(=O)[nH]c2=S)C(OC(C)=O)C1OC(C)=O | Japanese encephalitis virus | Nakayama | VERO | EC50 | - | 21.9 µg/mL
CC(OC(=O)Nc1ccc2ccccc2c1)c1ccc2c(c1)Sc1ccccc1O2 | Poliovirus | TYPE 3 | BSC-1 | inhibition | 2 µg/mL | 10%
NC(=O)c1[nH]nc([C@@H]2O[C@H](CO)[C@@H](O)[C@H]2O)c1O | Venezuelan equine encephalitis virus | Trinidad donkey | VERO | EC50 | - | 0.02 µg/mL
Nc1ncnc2c1ncn2[C@@H]1C=C(CO)[C@@H](O)[C@H]1O | Variola virus | BSH | MK2 | EC50 | - | 0.1 µg/mL
Nc1ccn(C[C@@H](CO)OCP(=O)(O)O)c(=O)n1 | Cowpox virus | Brighton | VERO | EC50 | - | 53 µM
Clc1ccc(C2COc3ccc(Cl)cc3C2)cc1 | Poliovirus | II (TYPE 2) | HEP-2 | EC50 | - | >10 µM
CC(=O)N[C@H]1C[C@@H](n2cnc3c(N)ncnc32)[C@H](O)[C@@H]1O | Venezuelan equine encephalitis virus | - | HFF | EC50 | - | >100 µg/mL
COC(=O)[C@H]1[C@@H]2C[C@@H](O[C@@H]3O[C@H](C)[C@@H](O)[C@H](N)[C@@H]3O)/C=C/C=C/C=C/C=C/C=C/C=C/C=C/[C@H](C)[C@@H](O)[C@H](C)[C@H](C)OC(=O)C[C@H](O)C[C@H](O)[C@@H](O)CC[C@H](O)C[C@H](O)C[C@](O)(C[C@@H]1O)O2 | Newcastle disease virus | - | HFF | EC50 | - | 100 µg/mL
Nc1ccn(C[C@@H](CO)OCP(=O)(O)O)c(=O)n1 | Variola virus | Isolate K1629 | VERO | EC50 | - | 17 µg/mL
C#CCOc1cc(OC)ccc1-c1cc(N(CC)CC)no1 | African swine fever virus | - | VERO | EC50 | - | >40 µM
COc1cc(O)c2c(c1)C(=O)c1c(cc3c(c1O)-c1c(cc(C)c(C(=O)N[C@H](C)C(=O)O)c1O)[C@H](O[C@@H]1O[C@H](C)[C@H](O)[C@H](O[C@@H]4OC[C@@H](O)[C@H](O)[C@H]4O)[C@H]1O)[C@H]3O)C2=O | Histoplasma capsulatum | 7 isolates | - | MIC | - | 10–20 µg/mL
COc1ccc(-c2cc(N3CCCC3)no2)c(O)c1 | African swine fever virus | - | VERO | EC50 | - | >384 µM
CC1(C)OC2C(O1)[C@@H](COS(=O)(=O)NC(=O)OC1O[C@H](COCc3ccccc3)[C@@H](OCc3ccccc3)[C@H](OCc3ccccc3)[C@H]1OCc1ccccc1)O[C@H]2n1ncc(=O)[nH]c1=O | Japanese encephalitis virus | Nakayama | VERO | EC50 | - | 60.4 µg/mL
O=c1[nH]cnc2c1ncn2[C@@H]1C=C(CO)[C@@H](O)[C@H]1O | Variola virus | 7124 | VERO | EC50 | - | >100 µg/mL
O=c1cnn([C@@H]2O[C@H](CO)[C@@H](O)[C@H]2O)c(=S)[nH]1 | Japanese encephalitis virus | Nakayama | VERO | EC50 | - | 2.62 µg/mL
c1ccc(C2COc3ccccc3C2)cc1 | Poliovirus | SABIN (TYPE 2) | HEP-2 | EC50 | - | >10 µM
CCN(CC)c1cc(-c2ccc(OC)cc2OC)on1 | African swine fever virus | - | VERO | EC50 | - | >362 µM
N=C(N)c1ncn([C@@H]2O[C@H](CO)[C@@H](O)[C@H]2O)n1 | Venezuelan equine encephalitis virus | - | - | EC50 | - | >100 µM
CC12CCC3C(C[C@H](OS(=O)(=O)O)[C@H]4C[C@@H](OS(=O)(=O)O)CCC34C)C1CCC2C(=O)CO | Junin virus | IV4454 | VERO | inhibition | 40 µg/mL | 2.6%
CC(=O)OC(C)c1ccc2c(c1)Sc1ccccc1O2 | Poliovirus | TYPE 3 | BSC-1 | inhibition | 0.4 µg/mL | 33%
Nc1ncnc2c1nc(Br)n2[C@@H]1O[C@H](CO)[C@@H](O)[C@H]1O | Cowpox virus | Brighton | C1271 | EC50 | - | 7.6 µM
Cc1ccc(C(=O)CCCCCCOc2ccc(C3=N[C@H](C)CO3)cc2)s1 | Poliovirus | TYPE 1 | VERO | EC50 | - | >25.97 µM
CC(=O)c1ccc2c(c1)Sc1cc(C(C)=O)ccc1O2 | Poliovirus | TYPE 3 | BSC-1 | inhibition | 2 µg/mL | 13%
Cn1cc(NC(=O)c2cc(NC(=O)c3cc([N+](=O)[O-])cn3C)cn2C)cc1C(=O)NCCC(=N)N | Vaccinia virus | Noguchi | BSC-1 | inhibition | 50 µg/mL | 0%
Cc1ccc(C(=O)CCCCOc2ccc(C3=NC(C)(C)CO3)cc2)s1 | Poliovirus | TYPE 2 | VERO | EC50 | - | 18.3 µM
C[C@@]1(O)[C@H](O)[C@@H](COP(=O)(O)OP(=O)(O)OP(=O)(O)O)O[C@H]1n1ccc2c(N)ncnc21 | Venezuelan equine encephalitis virus | - | VERO | EC50 | - | >320 µM
Cn1cc(NC(=O)c2cc(NC(=O)CN=C(N)N)cn2C)c(C(=O)NCCC(=N)N)c1 | Vaccinia virus | Noguchi | BSC-1 | inhibition | 200 µg/mL | 100%
O=P1(O)OCC2O[C@@H](n3cnc4c(SCc5ccccc5)ncnc43)[C@H](O)C2O1 | Vaccinia virus | - | - | MIC | - | 100 µg/mL
O=c1ccn([C@@H]2O[C@H](CO)[C@](O)(C(F)(F)F)[C@H]2O)c(=O)[nH]1 | Yellow fever virus | - | - | EC50 | - | ≥100 µM
Cc1ccc(C(=O)CCCCCCOc2ccc(C3=NC(C)CO3)cc2)s1 | Poliovirus | TYPE 1 | VERO | EC50 | - | >25.97 µM
Nc1nc(=O)n([C@@H]2C=C(CO)[C@@H](O)[C@H]2O)cc1Br | Variola virus | 7124 | - | EC50 | - | >100 µg/mL
CC(=O)c1ccc2c(c1)[S@@](=O)c1ccccc1O2 | Poliovirus | TYPE 3 | BSC-1 | inhibition | 2 µg/mL | 20%
C[C@H]1[C@H](O)[C@@H](C)/C=C/C=C/C=C/C=C/C=C/C=C/C=C/[C@H](O[C@@H]2O[C@H](C)[C@@H](O)[C@H](N)[C@@H]2O)C[C@@H]2O[C@](O)(C[C@@H](O)C[C@@H](O)CC[C@H](O)[C@@H](O)C[C@@H](O)CC(=O)O[C@H]1C)C[C@H](O)[C@H]2C(=O)O | Histoplasma capsulatum | 20 isolates | - | Mean MIC | - | 0.56 µg/mL
CO[C@H]1[C@@H](O)[C@H](n2cnc3c(N)ncnc32)O[C@@H]1CO | Cowpox virus | Brighton | VERO | EC50 | - | 24 µM
COC(=O)c1ncn([C@H]2O[C@@H](COCc3ccccc3)[C@H](OCc3ccccc3)[C@@H]2OCc2ccccc2)c1C(=O)OC | Lassa virus | - | - | EC50 | - | 46 µg/mL